Values quoted from earlier work, collected in EP2265632B1, “CD4-RELATED POLYPEPTIDES AND METHODS OF USE” (priority 2008, dated 2009).

Biological target: gp120 (Human immunodeficiency virus type 1 group M subtype B, UniProt P35961)
Conditions: different target gp120; read-out: published KD value; cited from earlier work

RINNIPWSEAMM [12p1]
Kd: 3.7 µM
